A mixed list of measured activities; the numbers were collected in NIAID ChemDB.

Shared fields: whole-cell or culture tests; agent: Mycobacterium tuberculosis

An empty or dashed field is not shown.

SMILES | cell line | conditions | tested at | read-out | method | strain or isolate | value
NC(=O)c1c(NC(=O)c2c(F)c(F)c(F)c(F)c2F)sc2c1CCC2 | - | - | - | MIC | - | - | 10.6 µM
O/C(=C\c1nc2ccccc2nc1/C=C(\O)c1ccc(Cl)cc1)c1ccc(Cl)cc1 | - | - | - | MIC | - | - | >6.25 µg/mL
O=C(Oc1cc(Cl)ccc1C(=O)Nc1ccc(C(F)(F)F)cc1)c1ccccc1 | - | 14 d | - | MIC | broth dilution | 331/88 (H37Rv) | 2 µM
c1ccc(-c2nc3sc(-c4ccco4)nn3c2CN2CCCCC2)cc1 | - | - | 6.25 µg/mL | inhibition | BACTEC | H37Rv | <90%
Cn1c2ccccc2c2cc(C=NNC(N)=S)ccc21 | - | - | - | EC90 | fluorescence | H37Rv | 5.9 µM
C[C@]1(COc2ccc(N3CCC(COCc4ccc(C(F)(F)F)cc4)CC3)cc2)Cn2cc([N+](=O)[O-])nc2O1 | - | - | - | MIC | - | H37Rv | 0.024 µg/mL
O=C1CSC(c2c(-c3ccccc3)nc3sc(-c4ccco4)nn23)N1c1ccccc1 | - | - | 6.25 µg/mL | inhibition | BACTEC | H37Rv | <90%
O=C(Oc1cc(Cl)ccc1C(=O)Nc1ccc(Cl)cc1)c1ccccc1 | - | 21 d | - | MIC | broth dilution | 331/88 (H37Rv) | 4 µM
CN(C)CC(O)c1ccc2c(c1)oc1ccccc12 | - | - | 12.5 µg/mL | inhibition | BACTEC | H37Rv | 3%
O=Cc1c(-c2ccccc2)nc2sc(C3CCCCC3)nn12 | - | - | 6.25 µg/mL | inhibition | BACTEC | H37Rv | <90%
O=C(Oc1ccc(Cl)cc1C(=O)Nc1ccc(C(F)(F)F)cc1)c1ccccc1 | - | 14 d | - | MIC | broth dilution | 331/88 (H37Rv) | 0.5 µM
CCOc1ccc(Nc2nc(C)c(C(=O)/C=C/c3ccc(Cl)cc3Cl)s2)cc1 | - | - | 6.25 µg/mL | inhibition | resazurin | H37Rv | 74%
Cn1c2ccccc2c2cc(C=NNc3nc(-c4ccccc4)cs3)ccc21 | - | - | - | EC90 | fluorescence | H37Rv | 62 µM
OCc1c(-c2ccccc2)nc2sc(-c3cccs3)nn12 | - | - | 6.25 µg/mL | inhibition | BACTEC | H37Rv | <90%
C=CCn1c(SC)nc2c(c1=O)CCCC2 | - | - | 12.5 µg/mL | inhibition | BACTEC | H37Rv | 17%
C[C@]1(COc2ccc(N3CCN(C/C=C/c4cccc(Cl)c4Cl)CC3)cc2)Cn2cc([N+](=O)[O-])nc2O1 | - | - | - | MIC | - | H37Rv | <0.012 µg/mL
CN1CCN(C(=S)SCN2C(=O)c3ccccc3S2(=O)=O)CC1 | - | - | 6.25 µg/mL | inhibition | - | H37Rv | 99%
Cc1cc(Cl)[nH]c2ccc3c(=O)c(C(=O)NN)cnc3c12 | - | - | - | MIC | - | H37Rv | 200 µg/mL
O=[N+]([O-])c1ccc(Oc2cnc3nc(-c4ccc(Cl)cc4)[nH]c3c2)cc1 | - | - | - | MIC80 | resazurin / absorbance | H37Rv | 1.9 µM
CC(C)(C)c1ccc(C(=O)CCC(=O)NC[C@H]2CN(c3ccc(-n4cncn4)c(F)c3)C(=O)O2)cc1 | - | - | - | MIC | - | 10 clinical isolates resistant | 2–4 µg/mL
O=[N+]([O-])c1ccc(Oc2cnc3nc(-c4cccc(Br)c4)[nH]c3c2)cc1 | - | - | - | MIC80 | resazurin / absorbance | H37Rv | 1.1 µM
CCCOC(=S)SCN1C(=O)c2ccccc2S1(=O)=O | - | - | 6.25 µg/mL | inhibition | - | H37Rv | 99%
CCOC(=O)c1sc(NC(=O)c2c(F)c(F)c(F)c(F)c2F)c(C(=O)OCC)c1C | - | - | - | MIC | - | - | 7.1 µM
CC1CCCN(C(=S)SCN2C(=O)c3ccccc3S2(=O)=O)C1 | - | - | - | MIC | - | H37Rv | 0.78 µg/mL
Cc1cc(Cl)[nH]c2ccc3c(=O)c(C(=O)NN4C(=O)C(Cl)C4c4ccccc4)cnc3c12 | - | - | - | MIC | - | H37Rv | 250 µg/mL
CCCC(=O)C(CC)/C(CCC(=O)N(Cc1ccccc1)Cc1ccccc1)=N\NC(=O)C[N+](C)(C)C.[Cl-] | - | - | 12.5 µg/mL | inhibition | BACTEC | H37Rv | 9%
Cn1c2ccccc2c2cc(C=NNc3nc(-c4cc5cc(Br)ccc5oc4=O)cs3)ccc21 | - | - | - | MIC | fluorescence | H37Rv | >200 µM
Cc1cc(Cl)[nH]c2ccc3c(=O)c(C(=O)NN4C(=O)C(Cl)C4c4cccc([N+](=O)[O-])c4O)cnc3c12 | - | - | - | MIC | - | H37Rv | 200 µg/mL
Cn1c2ccccc2c2cc(C=NNc3nc(-c4ccccc4O)cs3)ccc21 | - | - | - | MIC | fluorescence | H37Rv | 31 µM
Cc1ccc(S(=O)(=O)c2ccccc2[N+](=O)[O-])cc1 | - | - | - | MIC bound | BACTEC | H37Rv | >12.5 µg/mL
Cn1c2ccccc2c2cc(C=NNc3nc(-c4ccc(Cl)cc4)cs3)ccc21 | - | - | - | EC90 | fluorescence | H37Rv | >200 µM
C[C@]1(COc2ccc(N3CCN(C/C=C/c4ccc(F)c(C(F)(F)F)c4)CC3)cc2)Cn2cc([N+](=O)[O-])nc2O1 | - | - | - | MIC | - | H37Rv | 0.12 µg/mL
COC(=O)c1c(NC(=O)c2ccc(C)cc2)sc2c1CCCCC2 | - | - | - | MIC | - | - | >20.2 µM
O=C(Oc1ccc(Br)cc1C(=O)Nc1ccc(C(F)(F)F)cc1)c1ccccc1 | - | 21 d | - | MIC | broth dilution | Praha 1 | 1 µM
COC(=O)C(=O)C1CSC2=C(CS(=O)(=O)c3ccccc32)C1=O | - | - | 12.5 µg/mL | inhibition | BACTEC | H37Rv | 8%
NNC(=O)c1ccncc1 | - | - | - | MIC | fluorescence | H37Rv | 0.16 µM
COC(=O)c1cc2c3c(ccc2[nH]1)N(C(=O)c1cc2c4c(ccc2[nH]1)N(C(=O)c1cc2c5c(ccc2[nH]1)N(C(N)=O)CC5)CC4)CC3 | - | - | - | MIC bound | BACTEC | H37Rv | >12.5 µg/mL
Oc1ccc(CCN=C=S)cc1 | - | - | - | MIC | visual reading | H37Rv | 16 µg/mL
C[C@]1(COc2ccc(N3CCN(C/C=C/c4cccc(C(F)(F)F)c4F)CC3)cc2)Cn2cc([N+](=O)[O-])nc2O1 | - | - | - | MIC | - | H37Rv | 0.024 µg/mL
c1ccc(-c2nc3sc(-c4cccs4)nn3c2CN2CCCCC2)cc1 | - | - | 6.25 µg/mL | inhibition | BACTEC | H37Rv | <90%
CCOC(=S)SCN1C(=O)c2ccccc2S1(=O)=O | - | - | 6.25 µg/mL | inhibition | - | H37Rv | 96%
OCc1c(-c2ccc(Br)cc2)nc2sc(C3CCCCC3)nn12 | - | - | 6.25 µg/mL | inhibition | BACTEC | H37Rv | <90%
N#CCCN(C1=NN(C(=O)CC(=O)Nc2ccccc2)C(c2ccccc2)C1)c1ccccc1 | - | - | - | MIC bound | BACTEC | H37Rv | >12.5 µg/mL
COc1ccc2c(c1)[n+](=O)c(C(C)=O)c(C)n2[O-] | - | inside macrophages | - | EC99 | - | H37Rv | >12.5 µg/mL
O=C(O)C1OC(O)C(O)C(O)C1O | - | - | - | MIC bound | BACTEC | H37Rv | >12.5 µg/mL
COc1ccccc1C=NNC(=O)c1cnc2c(ccc3[nH]c(Cl)cc(C)c32)c1=O | - | - | - | MIC | - | H37Rv | 250 µg/mL
O=C(Oc1ccc(Cl)cc1C(=O)Nc1ccc(Cl)c(Cl)c1)c1ccccc1 | - | 14 d | - | MIC | broth dilution | Praha 1 | 0.5 µM
O=Cc1c(-c2ccccc2)nc2sc(-c3ccco3)nn12 | - | - | 6.25 µg/mL | inhibition | BACTEC | H37Rv | 100%
COc1ccc2c(c1)C1(C)c3cc(OC)ccc3OC1(C)O2 | - | - | 12.5 µg/mL | inhibition | BACTEC | H37Rv | -21%
C[C@]1(COc2ccc(N3CCN(C/C=C/c4ccc(Cl)c(C(F)(F)F)c4)CC3)cc2)Cn2cc([N+](=O)[O-])nc2O1 | - | - | - | MIC | - | H37Rv | 0.012 µg/mL
O=C(Oc1cc(Cl)ccc1C(=O)Nc1cccc(Cl)c1)c1ccccc1 | - | 21 d | - | MIC | broth dilution | 331/88 (H37Rv) | 4 µM
C[C@]1(COc2ccc(-c3ccc(N4CCN(Cc5ccc(C(F)(F)F)cc5)CC4)cc3)cc2)Cn2cc([N+](=O)[O-])nc2O1 | - | - | - | MIC | - | H37Rv | 0.024 µg/mL
COc1cc(C(=O)N/N=C/C(=O)O)cc(OC)c1OC | - | - | - | MIC | BACTEC | H37Rv | ≥12.5 µg/mL
Brc1ccc(-c2nc3sc(-c4ccco4)nn3c2CC2CCOCC2)cc1 | - | - | 6.25 µg/mL | inhibition | BACTEC | H37Rv | <90%
Cc1c(C(=O)c2ccccc2)[n+](=O)c2cc(Cl)c(Cl)cc2n1[O-] | VERO | - | - | EC50 | BACTEC | H37Rv | <6.25 µg/mL
O=C1c2ccccc2S(=O)(=O)N1CSC(=S)N1CCCCC1 | - | - | 6.25 µg/mL | inhibition | - | H37Rv | 99%
CC(=O)c1c(CN2CCN(c3ccc(Cl)cc3)CC2)n([O-])c2cc(C)c(C)cc2[n+]1=O | - | - | - | EC50 | BACTEC | H37Rv | >6.25 µg/mL
O/C(=C\c1nc2ccccc2nc1/C=C(\O)c1ccccc1)c1ccccc1 | - | - | - | EC50 | - | - | >6.25 µg/mL
CC(=O)Nc1ccc(C(=O)CCC(=O)NC[C@H]2CN(c3ccc(-n4cncn4)c(F)c3)C(=O)O2)cc1 | - | - | - | MIC | - | ATCC 27294 | 2 µg/mL
C=C(CC1CCN(c2ccc(OC[C@@]3(C)Cn4cc([N+](=O)[O-])nc4O3)cc2)CC1)c1ccc(C(F)(F)F)cc1 | - | - | - | MIC | - | H37Rv | 0.012 µg/mL
COc1ccc(S(=O)(=O)c2cnc(N/N=C/c3ccc([N+](=O)[O-])o3)nc2N)cc1 | - | - | 6.25 µg/mL | inhibition | resazurin | H37Rv | -3%
CO[C@H]1/C=C/O[C@@]2(C)Oc3c(C)c(O)c4c(=O)c(c5oc6cc(N7CCN(CC(C)C)CC7)cc(=O)c6nc5c4c3=C2O)NC(=O)/C(C)=C\C=C\[C@H](C)[C@H](O)[C@@H](C)[C@@H](O)[C@@H](C)[C@H](OC(C)=O)[C@@H]1C | - | - | - | MIC | - | TN1595 | 4 µg/mL
CCOC(=O)C1=C(Nc2ccc(Cl)c(Cl)c2)OC/C1=N\NC(=O)Cc1ccccc1 | - | - | - | MIC bound | BACTEC | H37Rv | >12.5 µg/mL
Cn1c2ccccc2c2cc(C=NNc3nc(-c4cccc(F)c4)cs3)ccc21 | - | - | - | EC50 | fluorescence | H37Rv | >200 µM
O=C1c2ccccc2S(=O)(=O)N1CSC(=S)N1CCCC1 | - | - | 6.25 µg/mL | inhibition | - | H37Rv | 99%
Cc1ccc(-c2nc3ncc(Oc4ccc([N+](=O)[O-])cc4)cc3[nH]2)c(O)c1 | - | - | - | MIC80 | resazurin / absorbance | H37Rv | 1.7 µM
COCC1OC(COCC2OCC3OC4(OCC(O)(C(C)OC)C5OCOC54)OC3C2OC)C(OC)C(O)C1COC1OC(C)C(OC)C(COC2OC(C)C3CC4(CC(O)C(COC5CC(COC6CC(C)([N+](=O)[O-])C(OC)C(C)O6)C(OC(=O)c6c(C)c(Cl)c(O)c(Cl)c6OC)C(C)O5)C(C)O4)OC3(C)C2O)C1O | - | - | - | MIC bound | BACTEC | H37Rv | >12.5 µg/mL
c1ccc(-c2nc3sc(-c4cccs4)nn3c2CC2CCOCC2)cc1 | - | - | 6.25 µg/mL | inhibition | BACTEC | H37Rv | <90%
O=C(O)Cn1cc(I)c(=O)c(I)c1 | - | - | - | MIC bound | resazurin | H37Rv | >6.25 µg/mL
Cc1ccc(C(=O)CCC(=O)NC[C@H]2CN(c3ccc(-[n+]4[nH]nc5ccccc54)c(F)c3)C(=O)O2)c(C)c1 | - | - | - | MIC | - | 10 clinical isolates sensitive | >16 µg/mL
CC(/C(=N/NC(=O)C(N)=O)c1c(Cl)ccc(Cl)c1O)C1(O)C(=O)Nc2ccccc21 | - | - | - | MIC bound | BACTEC | H37Rv | >12.5 µg/mL
NNC(=O)c1ccncc1 | - | - | - | MIC | - | - | 0.2 µM
O=C(/C=C1\N[C@H]2CCCC[C@H]2N\C1=C/C(=O)c1ccccc1)c1ccccc1 | - | - | 6.25 µg/mL | inhibition | - | - | 0%
COc1cccc2c1C(=O)c1c(O)c3c(c(O)c1C2=O)CC(O)(C(C)=O)CC3OC1CC(NCC2(O)OC(C(=O)NCCCN(C)C)C(O)C2O)C(O)C(C)O1 | - | - | - | MIC | - | ETA-R | 12.5 µg/mL
O=[N+]([O-])c1ccc(Oc2cnc3nc(-c4ccc([N+](=O)[O-])cc4)[nH]c3c2)cc1 | - | - | - | MIC80 | resazurin / absorbance | H37Rv | 1.1 µM
CCOC(=O)C(C)c1nc2cc(F)c(N3CCOCC3)cc2[nH]c1=O | - | - | - | MIC bound | resazurin | H37Rv | >6.25 µg/mL
O=[N+]([O-])c1ccc(Oc2cnc3nc(-c4cccc([N+](=O)[O-])c4)[nH]c3c2)cc1 | - | - | - | MIC80 | resazurin / absorbance | H37Rv | 0.8 µM
O=C(CCCC(=O)NNC(=O)Nc1ccccc1Cl)NNC(=O)Nc1ccccc1Cl | - | - | 12.5 µg/mL | inhibition | BACTEC | H37Rv | 16%
COc1ccc(-c2nc3ncc(Oc4ccc([N+](=O)[O-])cc4)cc3[nH]2)c(O)c1 | - | - | - | MIC80 | resazurin / absorbance | H37Rv | 1.6 µM
CC(=O)c1c(C)n([O-])c2cc(Cl)c(Cl)cc2[n+]1=O | VERO | - | - | EC50 | BACTEC | H37Rv | <6.25 µg/mL
CCOC(=O)C1NC(=O)C(C(=O)OCC)NC1=O | - | - | - | MIC | BACTEC | H37Rv | ≥12.5 µg/mL
O=C(CCC(=O)c1cccs1)NC[C@H]1CN(c2ccc(N3CCCC3)c(F)c2)C(=O)O1 | - | - | - | MIC | - | 10 clinical isolates sensitive | 1–2 µg/mL

MIC bound comes from a single tested concentration. MIC50, MIC90 and the like: level of inhibition, or share of isolates inhibited. Inhibition is in % at the dose shown (toxicity tests: loss of growth or viability). ECn: concentration that inhibits the pathogen or its effect by n%. Two numbers with a dash give a range or band. Neighbouring rows are from separate reports.